Measured values from several laboratories, pooled; numbers as filed in NIAID ChemDB.

Shared fields: growth or infection tests; organism: Human cytomegalovirus; read-out: EC90

ECn: concentration that inhibits the pathogen or its effect by n%. Neighbouring rows are from separate reports. Blank or dashed fields: not listed here.

structure | cells | strain or isolate | method | value
Nc1nc2c(ncn2COC(CO)CO)c(=O)[nH]1 | HFF | DAVIS | plaque count | 3.2 µM
CC(=O)N(O)CCCCCNC(=O)CCC(=O)N(O)CCCCCNC(=O)CCC(=O)N(O)CCCCCN | HFF | AD169 | plaque count | 17.3 µM
CC(C)Nc1nc2cc(Cl)c(Cl)cc2n1[C@H]1O[C@@H](CO)[C@H](O)[C@@H]1O | HFF | 2916R (1263W94-resistant) | virus yield | 0.3 µM
O=c1cc(NC2CC2)c2nnn3c2n1[C@@H]1O[C@H](C3)[C@@H](O)[C@H]1O | Huh7 | - | - | >100 µM
OC[C@@H]1O[C@@H](n2c(Cl)nc3cc(Cl)c(Cl)cc32)[C@H](O)[C@@H]1O | HFF | TOWNE | virus yield | 5.8 µM
O=C(NCc1ccc(Cl)cc1)c1c[nH]c2ccc(CCCO)cc2c1=O | - | GDGrP53 | plaque count | 2.8 µM
OC[C@H]1O[C@@H](n2c(Br)nc3cc(Cl)c(Cl)cc32)[C@H](O)[C@@H]1O | HFF | TOWNE | virus yield | 0.41 µM
O=C(NCc1ccc(Cl)cc1)c1c[nH]c2ccc(C#CCO)cc2c1=O | - | AD169 | plaque count | 2.7 µM
O=c1cc(NCCCO)c2nnn3c2n1[C@@H]1O[C@H](C3)[C@@H](O)[C@H]1O | Huh7 | - | - | >100 µM
Nc1ncnc2c1ncn2C=C1CC1CO | - | VR4990 (ganciclovir-resistant) | plaque count | 7.2 µM
CNc1cc(=O)n2c3c1nnn3C[C@H]1O[C@@H]2[C@H](O)[C@@H]1O | Huh7 | - | - | 7.4 µM
Nc1nc2c(ncn2COC(CO)CO)c(=O)[nH]1 | HFF | AD169 | virus yield | 1.2 µM
Cc1cc(=O)n2c3c1nnn3C[C@H]1O[C@@H]2[C@H](O)[C@@H]1O | Huh7 | - | - | 15.4 µM
CN(C)c1cccc2c(S(=O)(=O)Nc3ccc(NC(=O)C(C)(C)CO)cc3)cccc12 | HFF | AD169 | virus yield | 0.7 µM
NC(=S)N/N=C/c1ccc(Br)cc1F | Human foreskin fibroblasts | AD169 | cytopathic effect | >300 µM
O=c1cc(NCCO)c2nnn3c2n1[C@@H]1O[C@H](C3)[C@@H](O)[C@H]1O | Huh7 | - | - | >100 µM

Repeating the final 2 entries:

structure,cells,strain or isolate,method,value
NC(=S)N/N=C/c1ccc(Br)cc1F,Human foreskin fibroblasts,AD169,cytopathic effect,>300 µM
O=c1cc(NCCO)c2nnn3c2n1[C@@H]1O[C@H](C3)[C@@H](O)[C@H]1O,Huh7,-,-,>100 µM